Data from ChEMBL document CHEMBL4011590, “Structure-activity relationship studies on 3,5-dinitrophenyl tetrazoles as antitubercular agents” (Eur J Med Chem, 2017).

Key:
Mycobacterium avium [1] = experiment: Antimycobacterial activity against Mycobacterium avium CNCTC My 330/80 after 21 days by micromethod; type: functional
Mycobacterium avium [2] = experiment: Antimycobacterial activity against Mycobacterium avium CNCTC My 330/80 after 14 days by micromethod; type: functional

Row | SMILES | MIC>99 (Mycobacterium avium [1]) | MIC>99 (Mycobacterium avium [2])
1 | O=[N+]([O-])c1ccc(Cn2nnc(-c3cc([N+](=O)[O-])cc([N+](=O)[O-])c3)n2)cc1 | 4 µM (≈ 1.49 µg/mL) | 4 µM (≈ 1.49 µg/mL)
2 | O=[N+]([O-])c1cc(Cn2nnc(-c3cc([N+](=O)[O-])cc([N+](=O)[O-])c3)n2)cc([N+](=O)[O-])c1 | 4 µM (≈ 1.67 µg/mL) | 4 µM (≈ 1.67 µg/mL)

Converted amounts (≈) assume the structure as drawn.
